Measurements published in article PMC5466964, “Alkyl Protocatechuate-Loaded Nanostructured Lipid Systems as a Treatment Strategy for Paracoccidioides brasiliensis and Paracoccidioides lutzii In Vitro” (Frontiers in Microbiology, 2017).

Assays:
[1] = system: P. lutzii Pb01-strain ATCC MYA-826; experiment: MIC by microdilution (CLSI M27-A3 modified, alamar blue), Pb01; assay type: cell-based, Paracoccidioides lutzii; details: MRC5 IC50 / MIC Pb01
[2] = system: Paracoccidioides brasiliensis S1 isolate 18 (Pb18); experiment: MIC by microdilution (CLSI M27-A3 modified, alamar blue), Pb18; assay type: cell-based; details: MRC5 IC50 / MIC Pb18
[3] = system: P. brasiliensis S2 (02) (Pb02); experiment: MIC by microdilution (CLSI M27-A3 modified, alamar blue), Pb02; assay type: cell-based, Paracoccidioides brasiliensis; details: MRC5 IC50 / MIC Pb02

Structure (SMILES) | SI (IC50/MIC Pb01) [1] | SI (IC50/MIC Pb18) [2] | SI (IC50/MIC Pb02) [3]
CCCCCCOC(=O)c1ccc(O)c(O)c1 [hexyl, hexyl protocatechuate] | 3.8 | 7.5 | 15.5
CCCCCCCCCCOC(=O)c1ccc(O)c(O)c1 [decyl, decyl protocatechuate] | 8.4 | 16.5 | 33.3
CCC(C)n1ncn(-c2ccc(N3CCN(c4ccc(OCC5COC(Cn6cncn6)(c6ccc(Cl)cc6Cl)O5)cc4)CC3)cc2)c1=O (centres unmarked) [ITC, itraconazole, reference compound] | 1.0 | 5.0 | 12.5
C[C@@H]1[C@H](O)[C@@H](C)/C=C/C=C/C=C/C=C/C=C/C=C/C=C/[C@H](O[C@@H]2O[C@H](C)[C@@H](O)[C@H](N)[C@@H]2O)C[C@@H]2O[C@](O)(C[C@@H](O)C[C@@H](O)[C@H](O)CC[C@@H](O)C[C@@H](O)CC(=O)O[C@H]1C)C[C@H](O)[C@H]2C(=O)O [AMB, Amphotericin B, reference compound] | 1.8 | 1.8 | 
CCCCCCCCCCCCOC(=O)c1ccc(O)c(O)c1 [dodecyl, Dodecyl protocatechuate] | 37.3 | 37.3 | 74.7
CCCCCCCCCOC(=O)c1ccc(O)c(O)c1 [nonyl, nonyl protocatechuate] | 18.2 | 9.3 | 36.9
CCCCCCCOC(=O)c1ccc(O)c(O)c1 [heptyl, heptyl protocatechuate] | 4.5 | 2.3 | 73.3
CCCCCCCCOC(=O)c1ccc(O)c(O)c1 [octyl, octyl protocatechuate] | 34.7 | 34.7 | 17.7
